This passage reports Km and kcat results from article PMC8406192.

The test system of this series is Nc1ncnc2c1ncn2[C@@H]1O[C@H](COP(=O)(O)OP(=O)(O)OP(=O)(O)O)[C@@H](O)[C@H]1O. Briefly: purified protein. As to conditions: 20 mM Tris-HCl pH 7.5, 150 mM NaCl, 2 mM MgCl2, 15.7 nM dimer, 25°C, turnover per MMOB1670 subunit, no azide.

As for “dimer (unit complex) of F1-like ATPase, M. mobile gliding machinery (Mycoplasma mobile 163K)”, the Km is 74 µM and the kcat is listed as 0.18 molecules/s.

The term Km denotes the substrate concentration at which the rate is half of its maximum.
